Tests used:
[1] = molecular target: urease holoenzyme (Klebsiella aerogenes); assay: pull-down
[2] = molecular target: urease apoprotein (UreABC)3 (Klebsiella aerogenes); assay: pull-down

B1: MBP-UreD:UreF(K165A):UreG complex (complex)
chain 1: MLPPLKKGWQATLDLRFHQAGGKTVLASAQHVGPLTVQRPFYPEEETCHLYLLHPPGGIVGGDELTISAHLAPGCHTLITMPGASKFYRSSGAQALVRQQLTLAPQATLEWLPQDAIFFPGANARLFTTFHLCASSRLLAWDLLCLGRPVIGETFSHGTLSNRLEVWVDNEPLLVERLHLQEGELSSIAERPWVGTLLCYPATDALLDGVRDALAPLGLYAGASLTDRLLTVRFLSDDNLICQRVMRDVWQFLRPHLTGKSPVLPRIWLT
chain 2: MSTAEQRLRLMQLASSNLPVGGYSWSQGLEWAVEAGWVLDVAAFERWQRRQMTEGFFTVDLPLFARLYRACEQGDIAAAQRWTAYLLACRETRELREEERNRGAAFARLLSDWQPDCPPPWRSLCQQSQLAGMAWLGVRWRIALPEMALSLGYSWIESAVMAGVALVPFGQQAAQQLILRLCDHYAAEMPRALAAPDGDIGSATPLAAIASARHETQYSRLFRS
chain 3: not shown
- binding result [1]: binds
- binding result [2]: binds

Reference: article PMC3788043 (Journal of the American Society for Mass Spectrometry, 2013)
